Anti-infective test results gathered from many reports (values: NIAID ChemDB through PubChem).

All rows: growth or infection tests; species: Mycobacterium tuberculosis

ECn is the concentration giving n% inhibition of infection, replication or growth. Blank or dashed fields: not listed here. MIC50, MIC90 and the like: level of inhibition, or share of isolates inhibited. Conditions beyond the fields shown may differ between rows. Fold resistance: result on the changed form divided by that on wild type. MIC bound: limit read from a one-dose screen. Inhibition is in % at the dose shown (toxicity tests: loss of growth or viability).

SMILES,strain,tested at,changes,method,measure,result
CCCCCCCCCN1C(=O)CC(NCCN(CCCC)CCCC)C1=O,H37Ra,,,,MIC,≤20 µg/mL
CC1COc2c(N3CCN(C)CC3)c(F)cc3c(=O)c(C(=O)O)cn1c23,ATCC 35826,,,,MIC,0.5 µg/mL
COc1cc(/C=C/c2cccs2)oc(=O)c1,H37Rv,,,BACTEC,MIC bound,>12.5 µg/mL
O=c1[nH]c2ccc(Cl)cc2c(O)c1N=Nc1cccc([N+](=O)[O-])c1,H37Rv,6.25 µg/mL,,resazurin,inhibition,96%
O=C(O)c1ccc([N+](=O)[O-])cc1F,H37Rv,12.5 µg/mL,,BACTEC,inhibition,0%
CN[C@@H]1[C@H](O[C@H]2[C@H](O[C@H]3[C@H](O)[C@@H](O)[C@H](N=C(N)N)[C@@H](O)[C@@H]3N=C(N)N)O[C@@H](C)[C@]2(O)C=O)O[C@@H](CO)[C@H](O)[C@H]1O,H37Rv Harlingen,,,broth dilution,MIC,≤0.5 µg/mL
CC1COc2c(N3CCN(C)CC3)c(F)cc3c(=O)c(C(=O)O)cn1c23,Beijing (E-47/94),,Drug-resistant,resazurin,MIC,0.14 µM
COC(COC(N)=O)C1=C(N2CC2)C(=O)C(C)=C(N2CC2)C1=O,H37Rv,128 µg/mL,,BACTEC,inhibition,100%
COc1cc(OC)c2c(c1)OC(c1cc(OC)c(OC)c(OC)c1)C(Br)(Br)C2=O,,12.5 µg/mL,,,inhibition,16%
CC(=O)c1ccc(N=Nc2c(O)c3ccc(Cl)cc3[nH]c2=O)cc1,H37Rv,,,resazurin,MIC,>6.25 µg/mL
NC(=S)NN=C1CCCCCCC1,H37Rv,12.5 µg/mL,,BACTEC,inhibition,94%
O=C(/C=C/c1ccc(Cl)cc1)c1ccccc1O,H37Rv,,,,MIC,>12.5 µg/mL
CC1(C)[C@H]2CC[C@@H](CNCCNCCCN3CCCC3=O)[C@@H]1C2,,,,,MIC,50 µM
CC[C@@H](CO)NCCN[C@@H](CC)CO,17003,,Ethambutol-resistant,resazurin,MIC,>19.5 µM
Cc1nnc(-n2cccc2)s1,H37Rv,,,BACTEC,MIC bound,>12.5 µg/mL
CCc1ccc([C@H]2C[C@@H](C(F)(F)F)n3ncc(C(=O)NCc4ccc(OC)cc4)c3N2)cc1,H37Rv,,MmpL3: Ala677Val,fluorescence,fold resistance,>8
NS(=O)(=O)c1ccc(N2C(=S)N(c3ccccc3)C(=Nc3ccccc3)C2=Nc2ccccc2)cc1,H37Rv,12.5 µg/mL,,BACTEC,inhibition,91%
COC(=O)C1(C)Cc2ccccc2C(=O)O1,18b,,,resazurin,MIC,2 µg/mL
O=c1[nH]c2c([N+](=O)[O-])cccc2c(O)c1N=Nc1ccc(F)c(Cl)c1,H37Rv,,,resazurin,MIC,<6.25 µg/mL
O=C(N/N=C/c1ccc(N2CCOCC2)o1)c1ccncc1,Clinical isolate,,,resazurin,MIC,16 µg/mL
COc1ccc(Cc2noc(C3=CC4(CCN(CC5CCCO5)CC4)c4ccccc43)n2)cc1,H37Rv,,,resazurin,MIC,25 µM
Nc1nc(=O)[nH]s1,H37Rv,,,BACTEC,MIC bound,≤12.5 µg/mL
CC[C@H]1OC(=O)[C@H](C)[C@@H](O[C@H]2C[C@@](C)(OC)[C@@H](O)[C@H](C)O2)[C@H](C)[C@@H](O[C@@H]2O[C@H](C)C[C@H](N(C)C)[C@H]2O)[C@](C)(O)C[C@@H](C)C(=O)[C@H](C)[C@@H](O)[C@]1(C)O,ATCC 35827,,,,MBC,>8 µg/mL
Cc1cccc(C)c1N=Nc1c(O)c2cc(Cl)ccc2[nH]c1=O,H37Rv,6.25 µg/mL,,resazurin,inhibition,13%
COc1ccc(CCc2cc(OC)c3ccccc3n2)cc1OC,MT10,,,,MIC,>100 µg/mL
COc1c2ccoc2cc2oc(COC3OC(CO)C(O)C(O)C3O)cc(=O)c12,H37Rv,,,BACTEC,MIC bound,>12.8 µg/mL
CC1CN(c2cc3c(cc2F)c(=O)c(C(=O)O)cn3-c2ccc(F)cc2F)CCN1,ATCC 35830,,,,MBC,2 µg/mL
CCCCCCCCCCCNCCN[C@H](CO)Cc1ccccc1,,,,,MIC,25 µM
CC(C)C(=O)C1C/C(=C/c2ccccn2)C(=O)/C(=C/c2cccnc2)C1,Clinical isolate,,,resazurin,MIC,4 µg/mL
c1ccc(C2OC3C4COC(O4)C3O2)cc1,H37Rv,12.5 µg/mL,,BACTEC,inhibition,0%
CO[C@H]1/C=C/O[C@@]2(C)Oc3c(C)c(O)c4c(O)c(c5c(c4c3C2=O)NC2(CCN(CC(C)C)CC2)N=5)=NC(=O)/C(C)=C\C=C\[C@H](C)[C@H](O)[C@@H](C)[C@@H](O)[C@@H](C)[C@H](OC(C)=O)[C@@H]1C,3147 (rifampin-sensitive),,,,MBC,0.025 µg/mL
CC[C@@H](CO)NCCN[C@@H](CC)CO,Harlingen,,,broth dilution,MIC,8 µg/mL
Nc1ccc(O)c(C(=O)/C=C/c2ccccc2)c1,H37Rv,,,,MIC,>12.5 µg/mL
O=C(/C=C/c1ccccc1)c1cccc2ccccc12,,12.5 µg/mL,,,inhibition,37%
N#Cc1cc2cc3c4c(c2oc1=O)CCCN4CCC3,H37Rv,,,BACTEC,MIC bound,>12.5 µg/mL
CC1COc2c(N3CCN(C)CC3)c(F)cc3c(=O)c(C(=O)O)cn1c23,Harlingen,,,broth dilution,MIC,0.5 µg/mL
COc1ccc(OCC(=O)Nc2nonc2-c2ccc(OC)c(OC)c2)cc1,18b,,,resazurin,MIC,8 µg/mL
O=C(/C=C/c1ccccc1Br)c1ccccc1O,H37Rv,,,,MIC,>12.5 µg/mL
O=C1C[C@@H](c2ccc(O)cc2)Oc2cc(O)c(-c3c(O)cc4c(c3O)C(=O)C[C@@H](c3ccc(O)cc3)O4)c(O)c21,,12.5 µg/mL,,,inhibition,0%
CCCCC(CC)CN1CN(CC(CC)CCCC)CC(C)(NCCNC[C@@H]2CC[C@H]3C[C@@H]2C3(C)C)C1,,,,,MIC,25 µM
Cc1ccc(N=C=S)cc1Cl,H37Rv,12.5 µg/mL,,BACTEC,inhibition,63%
CC(C)c1ccc2c(c1)CC[C@H]1[C@](C)(CNCCNCCc3ccccc3F)CCC[C@]21C,,,,,MIC,50 µM
COc1ccccc1N=Nc1c(O)c2cccc([N+](=O)[O-])c2[nH]c1=O,H37Rv,6.25 µg/mL,,resazurin,inhibition,32%
O=C(/C=C/c1cccc(O)c1)c1ccccc1O,H37Rv,,,,EC50,>12.5 µg/mL
CN1C(=O)C2C(=O)N(Cc3ccccc3)CC(=O)N2c2cccnc21,H37Rv,6.25 µg/mL,,resazurin,inhibition,-4%
NNC(=O)c1ccncc1,PR1282,,,,MIC,0.04 µg/mL
Nc1ccc(C(=O)/C=C/c2cccnc2N)cc1,H37Rv,12.5 µg/mL,,,inhibition,0%
C1=C(c2nc(-c3ccccc3)no2)c2ccccc2OC12CCN(CC1CCCO1)CC2,H37Rv,,,colony count / visual reading,MBC,1.3 µM
NNC(=O)c1ccncc1,3S,,,,MIC,0.1 µg/mL
CC[C@H]1OC(=O)[C@H](C)[C@@H](O[C@H]2C[C@@](C)(OC)[C@@H](O)[C@H](C)O2)[C@H](C)[C@@H](O[C@@H]2O[C@H](C)C[C@H](N(C)C)[C@H]2O)[C@](C)(O)C[C@@H](C)CN(C)[C@H](C)[C@@H](O)[C@]1(C)O,ATCC 35830,,,,MIC,>8 µg/mL
COc1ccc(C2CC(=O)c3ccc(F)cc3O2)cc1,H37Rv,12.5 µg/mL,,,inhibition,0%
Nc1cc2ncccc2c2ncccc12,H37Rv,12.5 µg/mL,,BACTEC,inhibition,67%
CO[C@H]1/C=C/O[C@@]2(C)Oc3c(C)c(O)c4c(O)c(c(/C=N/N5CCN(C/C=C/c6ccccc6)CC5)c(O)c4c3C2=O)NC(=O)/C(C)=C\C=C\[C@H](C)[C@H](O)[C@@H](C)[C@@H](O)[C@@H](C)[C@H](OC(C)=O)[C@@H]1C,3064 (rifampin-sensitive),,,,MIC,0.1 µg/mL
CN[C@@H]1[C@H](O[C@H]2[C@H](O[C@H]3[C@H](O)[C@@H](O)[C@H](N=C(N)N)[C@@H](O)[C@@H]3N=C(N)N)O[C@@H](C)[C@]2(O)C=O)O[C@@H](CO)[C@H](O)[C@H]1O,ATCC 2794,,Drug-resistant,resazurin,MIC,0.5 µM
CO[C@H]1/C=C/O[C@@]2(C)Oc3c(C)c(O)c4c(O)c(c5c(c4c3C2=O)NC2(CCN(CC(C)C)CC2)N=5)=NC(=O)/C(C)=C\C=C\[C@H](C)[C@H](O)[C@@H](C)[C@@H](O)[C@@H](C)[C@H](OC(C)=O)[C@@H]1C,MDR-2 (MDR),,,,MIC,>1.6 µg/mL
Cc1nnc2n1N=C(c1ccc(O)c(O)c1O)CS2.Cl,H37Rv,,,BACTEC,MIC bound,>12.5 µg/mL
C[C@@H]1CN(c2c(F)c(N)c3c(=O)c(C(=O)O)cn(C4CC4)c3c2F)C[C@H](C)N1,S-5M (susceptible),,,,MIC,0.2 µg/mL
CC(NCCNCCc1ccccc1)C12CC3CC(CC(C3)C1)C2,,,,,MIC,50 µM
COc1ccc(/C=C/C(=O)c2cccc(I)c2O)cc1,H37Rv,,,,MIC,>12.5 µg/mL
Cc1ccc(-c2noc(C3=CC4(CCN(CC5CCCO5)CC4)c4ccccc43)n2)cn1,H37Rv,,,resazurin,MIC,1.6 µM
CC(=O)OC1=C2C(C[C@H]3[C@@H]4CC=C5C[C@@H](OC(C)=O)CC[C@]5(C)[C@H]4CC[C@]23C)C(C(=O)NCc2ccccc2)C(C(=O)O)C1,H37Rv,6.25 µg/mL,,resazurin,inhibition,24%
CCCCN1C(=O)C=CC1=O,H37Rv,,,,MIC,≤20 µg/mL
COc1ccc2c(c1)/C(=N/OC(=O)c1ccc(OC)c([N+](=O)[O-])c1)CCC2,18b,,,resazurin,MIC,8 µg/mL
CS/C(Nc1ccccc1)=C1\CCCn2c1nc1ccccc1c2=O,H37Rv,,,resazurin,MIC bound,>6.25 µg/mL
NC(=O)c1cnccn1,Isolate 9131 monodrug-resistant,,,,MIC,>300 µg/mL
CCOC(=O)C1=CC(C)(C(=O)OCC)Nc2c(nc(N)[nH]c2=O)N1,H37Rv,,,resazurin,MIC bound,>6.25 µg/mL
CC(C)=CCC/C(C)=C/CNCCNC(C)C12CC3CC(CC(C3)C1)C2,,,,,MIC,25 µM
CO[C@H]1/C=C/O[C@@]2(C)Oc3c(C)c(O)c4c(O)c(c5c(c4c3C2=O)NC2(CCN(CC(C)C)CC2)N=5)=NC(=O)/C(C)=C\C=C\[C@H](C)[C@H](O)[C@@H](C)[C@@H](O)[C@@H](C)[C@H](OC(C)=O)[C@@H]1C,Strain 77 (H526Q L533P),,,,MIC,0.25 µg/mL
CCCCCCCCCCCNCCNC1CCC(C)CC1,,,,,MIC,25 µM
CCCCCCCCCN1C(=O)CC(SCCNC(=O)C2CC2)C1=O,H37Rv,,,,MIC,≤20 µg/mL
CCOC(=O)C1=C(C)O/C(=C\c2ccco2)C1=O,H37Rv,12.5 µg/mL,,BACTEC,inhibition,36%
COc1ccc(CCNCCNC(C)CC(C)C)cc1OC,,,,,MIC,50 µM
COc1ccc(CCC2CCc3ccccc3N2C)cc1OC,MT9,,,,MIC,>322 µg/mL
O=C1C[C@@H]2OCC=C3C[N+]4([O-])CC[C@]56c7ccccc7N1[C@H]5[C@H]2[C@H]3C[C@@H]64,H37Rv,,,BACTEC,MIC,≥128 µg/mL
O=C(/C=C/c1ccc(Br)cc1)c1ccccc1O,H37Rv,,,,MIC,>12.5 µg/mL
NC1CCN(c2c(F)cc3c(=O)c(C(=O)O)cn(C4CC4)c3c2Cl)C1,Drug-resistant,,,,MIC90,0.5 µg/mL
CCCCCCCCCCC[C@@H]1CCC[C@H](C)N1,H37Rv,12.5 µg/mL,,BACTEC,inhibition,94%
C=C1CC(=O)N(CCCCCCCCC)C1=O,Clinical isolate (isoniazid-resistant),,,,MIC,≤20 µg/mL
O=C1c2ccccc2OC(c2ccccc2)C1I,H37Rv,12.5 µg/mL,,,inhibition,0%
Cc1ccc(C2=Nn3c(nnc3C(C)C)SC2)cc1,18b,,,resazurin,MIC,8 µg/mL
CCCCC(CC)CN1CN(CC(CC)CCCC)CC(C)(NCCNCc2ccc(OC)c(OC)c2)C1,,,,,MIC,50 µM
C[C@H]1COc2c(N3CCN(C)CC3)c(F)cc3c(=O)c(C(=O)O)cn1c23,7S,,,,MIC,0.5 µg/mL
Cc1ccc(N=Nc2c(O)c3ccc(Cl)c(Cl)c3[nH]c2=O)cc1,H37Rv,,,resazurin,MIC,<6.25 µg/mL